Results from US12252481B2, “Anti-viral compounds” (Aligos Therapeutics, Inc., priority 2021, dated 2025).
pEC50, pIC50: −log10 of the molar value. Read-outs that look alike come from different tables or passages of the source.

The chains behind the UniProt entries cited, without tags or fusion partners. Residues count along the entry.
UniProt P03303, 1538-1719 limits assumed: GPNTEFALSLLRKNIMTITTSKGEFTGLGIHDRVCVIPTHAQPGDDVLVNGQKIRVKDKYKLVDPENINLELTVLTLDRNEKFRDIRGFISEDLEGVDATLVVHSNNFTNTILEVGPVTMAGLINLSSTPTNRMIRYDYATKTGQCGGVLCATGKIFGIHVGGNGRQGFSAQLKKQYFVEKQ

Columns and labels:
SARS-Cov-2 3CLpro = SARS-Cov-2 3CLpro (Severe acute respiratory syndrome coronavirus 2, UniProt P0DTD1)
HRV3C = HRV3C (Human rhinovirus 14, UniProt P03303); settings: read-out: HRV IC50 (bound), 30 mins preincubation, SAMDI-MS
Description: SARS-Cov-2 3CLpro and HRV3C Duplex Assay
Protease assays were performed in 384-well low volume polypropylene microtiter plates at ambient temperature. For the duplex assay, 3CLpro and HRV3C was added using a Multidrop Combi (Thermo Scientific; Waltham, MA) and preincubated for 30 mins with small molecules. The reactions were initiated by the addition of the two peptide substrates. The reactions were incubated for 30 mins and quenched by the addition of 0.5% formic acid (final) with subsequent neutralization using 1% sodium bicarbonate (final). Internal standard peptides were added in 20 mM Hepes pH 8.0 for quantitation of the protease products. For SAMDI-MS analysis, 2 μL of each reaction mixture was transferred using a 384-channel automated liquid handler to SAMDI biochip arrays functionalized with a neutravidin-presenting self-assembled monolayer. The SAMDI arrays were incubated for 1 h in a humidified chamber to allow the specific immobilization of the biotinylated peptide substrates, cleaved products and internal standards. The samples were purified by washing the SAMDI arrays with deionized ultrafiltered water and dried with compressed air. A matrix comprising alpha-cyano cinnamic acid in 80% acetonitrile: 20% aqueous ammonium citrate was applied in an automated format by dispensing 50 nL to each spot in the array. SAMDI-MS was performed using reflector-positive mode on an AB Sciex TOF-TOF 5800 System (AB Sciex, Framingham, MA) with 400 shots/spot analyzed in a random raster sampling. For data analysis, area under the curves (peaks) (AUCs) for the product and internal standard were calculated using the TOF/TOF Series Explorer (AB Sciex), and the amount of product formed was calculated using the equation (AUC product/AUC internal standard). The amount of product generated was calculated using the ratio of product area under the curve (AUC) divided by the AUC of the internal standard. […] Assay robustness was determined by Z-Factor. The IC50s were determined by fitting the curves using a four-parameter equation in Graphpad Prism 8. […]

[1] = test system: human beta-coronavirus OC43; assay: OC43 coronavirus antiviral assay in HeLa cells (cytopathic effect, cell-titer-glo)
Description: OC43 Coronavirus Assay in HeLa Cells […] HeLa human cervical epithelial cells (ATCC) were used as susceptible host cell lines and were cultured using EMEM media, supplemented with 10% fetal bovine serum (FBS), 1% (v/v) penicillin/streptomycin (P/S), 1% (v/v) HEPES and 1% (v/v) cellgro Glutagro™ supplement (all Corning, Manassas, VA) at 37° C. For the OC43 antiviral assay, 1.5×10^4 HeLa cells per well were plated in 100 μL complete media in white 96-well plates with clear bottoms at 37° C. for up to 24 h to facilitate attachment and allow cells to recover from seeding stresses. Next day, the cell culture medium was removed. Serially diluted compounds in 100 μL assay media (EMEM, 2% FBS, 1% P/S, 1% cellgro Glutagro™ supplement, 1% HEPES) were added to the cells and incubated for 4 H at 37° C. in a humidified 5% CO2 incubator. […] 96-well plates were incubated for 6 (HeLa) days at 33° C.; each plate contains uninfected control wells as well as virus-infected wells that were not treated with compound. Cytotoxicity plates without the addition of OC43 virus were carried out in parallel. At the end of the incubation period, 100 μL cell culture supernatant was replaced with 100 μL cell-titer-glo reagent (Promega, Madison, WI) and incubated for at least 10 min at rt prior to measuring luminescence. Luminescence was measured on a Perkin Elmer (Waltham, MA) Envision plate reader. Antiviral % inhibition was calculated as follows: [(Compound treated cells infected sample)−(no compound infected control)]/[(Uninfected control)−(no compound infected control)]*100; Using GraphPad (San Diego, CA) prism software version 8.3.1, the antiviral dose-response plot was generated as a sigmoidal fit, log(inhibitor) vs response-variable slope (four parameters) model and the EC50 was calculated which is the predicted compound concentration corresponding to a 50% inhibition of the viral cytopathic effect. […]

[2] = test system: B.1.1.7 lineage SARS-CoV-2; assay: B.1.1.7 infection model in A549-Dual ACE2 TMPRSS2 cells (MTS)
Description: B.1.1.7 Infection Model in A549-Dual ACE2 TMPRSS2 Cells
The A549-dual_ACE2_TMPRSS2 cells (InvivoGen Cat #a549-cov2r) were propagated in the growth medium which was prepared by supplementing DMEM (gibco cat no 41965-039) with 10% v/v heat-inactivated FCS and 10 μg/mL blasticidin (InvivoGen ant-bl-05), 100 μg/mL hygromycin (InvivoGen ant-hg-1), 0.5 μg/mL puromycin (InvivoGen ant-pr-1) and 100 μg/mL zeocin (InvivoGen ant-zn-05) in a humidified 5% CO2 incubator at 37° C. The assay medium was prepared by supplementing DMEM (gibco cat no 41965-039) with 2% v/v heat-inactivated FCS.
The virus isolate used is from the B.1.1.7 lineage (derived from hCoV-19/Belgium/rega-12211513/2020; EPI_ISL_791333,2020-12-21; see Abdelnabi et al., “Comparing infectivity and virulence of emerging SARS-CoV-2 variants in Syrian hamsters” EBioMedicine (2021) June; 68:103403. doi: 10.1016/j.ebiom.2021.103403).
For antiviral testing, cells were seeded in 96-well plates (Falcon) at a density of 15,000 cells per well in assay medium. After overnight growth, cells were treated with the indicated compound concentrations and infected with a MOI of 0.001 TCID50/cell (final volume 200 μL/well in assay medium). On day 4 p.i. differences in cell viability caused by virus-induced CPE or by compound-specific side effects are analyzed using MTS as described previously (PMID: 22575574).
Table 4 indicates related EC50 and CC50 values for the tested compounds ‘A’ indicates an EC50<100 nM, ‘B’ indicates an EC50 of ≥100 nM and <1000 nM, ‘C’ indicates an EC50≥1000 nM and <10000 nM. For CC50, the values are reported in micromolar (μM). ‘A’ indicates a CC50≥10 μM. ‘B’ indicates a CC50≥1 μM and <10 μM.

[3] = read-out: SARS-Cov-2 IC50 (class), 3CLpro, 30 mins preincubation, SAMDI-MS
[4] = read-out: EC50 (class), 6 days at 33° C.
[5] = read-out: A549-dual_ACE2_TMPRSS2 (EC50), MOI 0.001 TCID50/cell, day 4 p.i.

**Q.** `CC(C)(C)[C@H](NC(=O)C(F)(F)F)C(=O)N1C[C@H]2[C@@H]([C@H]1C(=O)N[C@H](C#N)CC1CC3(CC(F)(F)C3)NC1=O)[C@H]1C=C[C@@H]2C1` (single isomer, unassigned) [83a] was tested. Which pIC50 (SARS-Cov-2 3CLpro; [3]) did it give?
**A.** > 7.70

**Q.** And the pIC50 (HRV3C)?
**A.** < 6.30

**Q.** What about the pEC50 [1, 4] of the same compound?
**A.** > 7.00

**Q.** What about the pEC50 [2, 5] of the same compound?
**A.** > 7.00

**Q.** `CC(C)(C(NC(=O)C(F)(F)F)C(=O)N1C[C@H]2[C@@H]([C@H]1C(=O)N[C@H](C#N)C[C@@H]1CCNC1=O)[C@H]1C=C[C@@H]2C1)C(F)(F)F` (stereo partly drawn) was tested. Which pIC50 (SARS-Cov-2 3CLpro; read-out: SARS-Cov-2 IC50 (bound)) did it give?
**A.** < 6.30

**Q.** What about the pIC50 (HRV3C) of the same compound?
**A.** < 6.30

**Q.** And the pEC50 ([1]; read-out: EC50 (bound), 6 days at 33° C.)?
**A.** < 6.00

**Q.** What about the pEC50 ([2]; read-out: A549-dual_ACE2_TMPRSS2 (EC50), MOI 0.001 TCID50/cell, day 4 p.i., numeric bounds given instead of class symbols) of the same compound?
**A.** < 6.00

**Q.** How did the pIC50 (SARS-Cov-2 3CLpro; [3]) turn out when `CC(C)(C)[C@H](NC(=O)C(F)(F)F)C(=O)N1C[C@H]2[C@@H]([C@H]1C(=O)N[C@H](C#N)CC1CC3(CC(F)(F)C3)NC1=O)[C@H]1C=C[C@@H]2C1` (single isomer, unassigned) [83b] was run?
**A.** > 7.70

**Q.** What about the pIC50 (HRV3C) of the same compound?
**A.** < 6.30

**Q.** What about the pEC50 [1, 4] of the same compound?
**A.** > 7.00

**Q.** What about the pEC50 [2, 5] of the same compound?
**A.** > 7.00
